Drawing on patent US20050064470A1, “High throughput screening methods for identifying RNA binding compounds” (priority 2003, published 2005), this text covers Kd for one sequence.

The exact form of at least one protein or probe is not confirmed.

In the data set the test system is alpha-TatR 3 (Tat 47-57 peptide). Put plainly: FP. The note with it: 50 mM Tris-HCl pH 7.4, 20 mM KCl, 0.02% Tween20, room temp; synthetic protein; protein details: synthetic peptide; label: fluorescein.

Sequence “GGCAGAUCUGAGCCUGGGAGCUCUCUGCC [wild-type TAR RNA]” yielded a Kd of 1.8 nM.
